Assay results as given in patent publication US20230346820A1, “METHODS AND COMPOSITIONS FOR THE TREATMENT OF SARS-COV-2” (priority 2020, published 2023).

System: SARS-CoV-2
Assay: SARS-CoV-2/HeLa-ACE2 high-content screening assay (% infected cells)
Conditions: Table 1; selectivity ratio

## c1ccc2c(NCCCCNc3c4c(nc5ccccc35)CCCC4)c3c(nc2c1)CCCC3
  HeLa-ACE2 CC50/CoV-2 EC50: 18.26
